Read-outs that look alike come from different tables or passages of the source.
Experiments:
[1] = target: T1, WT PfPKG (Plasmodium falciparum, UniProt Q8I719); settings: for LE: ligand efficiency; for LLE: lipophilic ligand efficiency
[2] = target: TQ PfPKG (PfPKG_T618Q) (Plasmodium falciparum, UniProt Q8I719, T618Q); settings: read-out: TQ PfPKG, gatekeeper mutant TQ PfPKG
[3] = target: HuPKGIα (Homo sapiens, UniProt Q13976); assay: Kinase Glo enzymatic assay, human PKG; type: biochemical; settings: read-out: Hu PKGIα, human PKGIα
[4] = target: T1, WT PfPKG; settings: read-out: WT PfPKG, recombinant WT PfPKG

Sequences of proteins named here, by UniProt entry; tags and fusion partners are left off.
UniProt Q8I719, whole entry: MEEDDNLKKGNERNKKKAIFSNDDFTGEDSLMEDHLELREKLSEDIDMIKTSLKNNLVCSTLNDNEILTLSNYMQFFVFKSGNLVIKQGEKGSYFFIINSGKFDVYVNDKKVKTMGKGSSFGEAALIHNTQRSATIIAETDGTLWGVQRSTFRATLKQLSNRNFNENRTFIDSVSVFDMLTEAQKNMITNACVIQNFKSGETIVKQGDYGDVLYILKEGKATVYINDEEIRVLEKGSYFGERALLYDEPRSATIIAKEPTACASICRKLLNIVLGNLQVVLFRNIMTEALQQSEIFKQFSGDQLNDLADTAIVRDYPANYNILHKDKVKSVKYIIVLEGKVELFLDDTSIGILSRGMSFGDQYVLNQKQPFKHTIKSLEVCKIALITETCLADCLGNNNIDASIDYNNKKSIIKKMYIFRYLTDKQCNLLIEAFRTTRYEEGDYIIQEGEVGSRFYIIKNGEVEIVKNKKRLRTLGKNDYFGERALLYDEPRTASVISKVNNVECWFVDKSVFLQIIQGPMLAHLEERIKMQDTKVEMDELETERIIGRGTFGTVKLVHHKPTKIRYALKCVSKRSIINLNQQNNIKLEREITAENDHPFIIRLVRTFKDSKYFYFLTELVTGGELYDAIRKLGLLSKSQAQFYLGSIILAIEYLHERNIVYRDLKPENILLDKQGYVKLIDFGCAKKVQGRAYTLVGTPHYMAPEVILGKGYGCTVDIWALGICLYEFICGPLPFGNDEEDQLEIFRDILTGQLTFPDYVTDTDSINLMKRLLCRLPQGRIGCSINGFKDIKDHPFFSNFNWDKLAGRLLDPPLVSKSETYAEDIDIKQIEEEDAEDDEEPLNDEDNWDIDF
UniProt Q8I719, whole entry T618Q: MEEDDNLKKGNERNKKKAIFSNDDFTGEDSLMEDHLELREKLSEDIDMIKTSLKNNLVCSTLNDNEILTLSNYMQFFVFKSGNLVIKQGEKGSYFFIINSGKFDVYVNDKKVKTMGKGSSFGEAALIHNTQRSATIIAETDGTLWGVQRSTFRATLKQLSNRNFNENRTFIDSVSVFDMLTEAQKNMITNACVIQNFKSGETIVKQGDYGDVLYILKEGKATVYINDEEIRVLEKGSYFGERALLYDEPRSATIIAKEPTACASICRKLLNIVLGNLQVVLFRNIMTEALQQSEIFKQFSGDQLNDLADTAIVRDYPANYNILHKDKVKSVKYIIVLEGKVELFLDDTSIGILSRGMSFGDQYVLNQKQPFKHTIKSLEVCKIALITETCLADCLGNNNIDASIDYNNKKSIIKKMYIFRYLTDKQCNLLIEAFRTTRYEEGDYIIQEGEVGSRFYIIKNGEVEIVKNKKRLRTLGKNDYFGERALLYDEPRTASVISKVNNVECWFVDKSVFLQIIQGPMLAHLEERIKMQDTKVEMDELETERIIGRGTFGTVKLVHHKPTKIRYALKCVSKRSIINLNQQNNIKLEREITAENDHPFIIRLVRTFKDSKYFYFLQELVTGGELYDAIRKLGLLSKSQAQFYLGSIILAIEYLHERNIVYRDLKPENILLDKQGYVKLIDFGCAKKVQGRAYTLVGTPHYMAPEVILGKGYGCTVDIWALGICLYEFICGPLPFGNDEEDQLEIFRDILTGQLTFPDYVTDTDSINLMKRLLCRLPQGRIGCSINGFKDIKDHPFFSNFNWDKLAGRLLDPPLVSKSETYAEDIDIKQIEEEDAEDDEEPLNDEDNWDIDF
UniProt Q13976, whole entry: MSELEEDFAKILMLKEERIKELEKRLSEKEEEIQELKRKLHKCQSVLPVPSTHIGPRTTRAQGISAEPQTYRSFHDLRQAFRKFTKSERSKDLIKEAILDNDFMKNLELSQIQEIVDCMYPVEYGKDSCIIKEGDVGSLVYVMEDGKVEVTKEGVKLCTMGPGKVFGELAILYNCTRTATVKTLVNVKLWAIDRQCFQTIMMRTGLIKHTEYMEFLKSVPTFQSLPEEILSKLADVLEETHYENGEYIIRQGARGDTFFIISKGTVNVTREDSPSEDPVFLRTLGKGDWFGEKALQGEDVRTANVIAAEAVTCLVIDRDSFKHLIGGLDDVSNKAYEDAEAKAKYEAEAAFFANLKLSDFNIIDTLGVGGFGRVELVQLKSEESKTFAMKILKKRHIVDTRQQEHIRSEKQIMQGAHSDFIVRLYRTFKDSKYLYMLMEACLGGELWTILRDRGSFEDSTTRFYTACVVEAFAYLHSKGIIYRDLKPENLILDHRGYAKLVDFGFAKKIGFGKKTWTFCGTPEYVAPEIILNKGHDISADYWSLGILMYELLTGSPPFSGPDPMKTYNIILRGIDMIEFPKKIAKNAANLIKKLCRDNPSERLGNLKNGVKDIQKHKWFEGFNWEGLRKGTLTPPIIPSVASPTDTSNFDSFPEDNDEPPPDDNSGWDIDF

In the case of CC(C)(NS(C)(=O)=O)c1nc(-c2ccc(Cl)c(O)c2)c(-c2ccncc2)[nH]1, the LE ([1]; tested form: HCl) is reported as 0.4, the LLE ([1]; tested form: HCl) is reported as 6.5 and the IC50 ([2]; tested form: HCl) is reported as > 100 µM. For the same compound, the IC50 ([3]; tested form: HCl) was > 100 µM and the IC50 ([4]; tested form: HCl) was 0.006 µM.
In the case of COc1ccc(-c2nn(C(C)(C)C)c(N)c2C(N)=O)cc1, the LE ([1]; tested form: TFA) is reported as 0.43, the LLE ([1]; tested form: TFA) is reported as 5.1 and the IC50 ([2]; tested form: TFA) is reported as > 100 µM. The IC50 ([3]; tested form: TFA) was > 100 µM and the IC50 ([4]; tested form: TFA) was 0.254 µM.
With COc1ccc(-c2nc(S(=O)(=O)C(C)C)[nH]c2-c2ccncc2)cc1 the LE [1] was 0.5, the LLE [1] was 5.8 and the IC50 [2] was > 100 µM. The IC50 [3] was > 100 µM and the IC50 [4] was 0.002 µM.
Nc1[nH]nc(-c2ccncc2)c1-c1ccc2c(c1)OCO2 gave an LE [1] of 0.47, an LLE [1] of 5.3 and an IC50 [2] of 7.9 µM. The IC50 [3] was > 100 µM and the IC50 [4] was 0.072 µM.
In the case of Nc1nccc(-c2sc(N)nc2-c2cccc(NS(=O)(=O)c3c(F)cccc3F)c2F)n1, the LE [1] is reported as 0.3, the LLE [1] is reported as 4.6 and the IC50 [2] is reported as > 100 µM. The IC50 [3] was > 100 µM and the IC50 [4] was 0.068 µM.
Compound NCc1ccc(-c2nc(-c3cc(O)ccc3Br)c(-c3ccncc3)[nH]2)cc1 has an LE ([1]; tested form: HCl) of 0.4, an LLE ([1]; tested form: HCl) of 4.7 and an IC50 ([2]; tested form: HCl) of 11.7 µM. It also gave an IC50 ([3]; tested form: HCl) of 42.7 µM and an IC50 ([4]; tested form: HCl) of 0.006 µM.
In the case of OCc1ccn2nc(-c3ccc(F)cc3)c(-c3ccncc3)c2c1, the LE [1] is reported as 0.4, the LLE [1] is reported as 4.1 and the IC50 [2] is reported as > 100 µM. The IC50 [3] was > 100 µM and the IC50 [4] was 0.072 µM.
With FC(F)(F)c1cccc(-c2ncn(CC3CC3)c2-c2ccncc2)c1 the LE [1] was 0.35, the LLE [1] was 2.3 and the IC50 [2] was > 100 µM. For the same compound, the IC50 [3] was > 100 µM and the IC50 [4] was 0.479 µM.
For FC(F)(F)c1cccc(-c2n[nH]cc2-c2ccncc2)c1, the LE [1] was 0.5, the LLE [1] was 4.4 and the IC50 [2] was > 100 µM. For the same compound, the IC50 [3] was > 100 µM and the IC50 [4] was 0.023 µM.
With O=C(O)c1cccc(-c2nn3ccccc3c2-c2ccncc2)c1 the LE [1] was 0.36, the LLE [1] was 3.1 and the IC50 [2] was > 100 µM. The IC50 [3] was > 100 µM and the IC50 [4] was 0.468 µM.
CNc1nccc(-c2c(-c3ccc(F)cc3)ncn2[C@H](CO)CC(C)C)n1 was tested, and the LE [1] was 0.33, the LLE [1] was 3.3 and the IC50 [2] was > 100 µM. For the same compound, the IC50 [3] was > 100 µM and the IC50 [4] was 0.26 µM.
In the case of N#Cc1ccc(-c2nc(-c3ccncc3)c(-c3ccncc3)[nH]2)cc1, the LE [1] is reported as 0.34, the LLE [1] is reported as 3.9 and the IC50 [2] is reported as > 100 µM. The IC50 [3] was > 100 µM and the IC50 [4] was 0.617 µM.
With CC(C)(C)n1nc(-c2ccc3cc[nH]c3c2)c(C(N)=O)c1N the LE [1] was 0.4, the LLE [1] was 5.1 and the IC50 [2] was > 100 µM. The IC50 [3] was > 100 µM and the IC50 [4] was 0.209 µM.
In the case of CC(C)c1nc(-c2cccc(C(F)(F)F)c2)c(-c2ccnc(NCCO)n2)[nH]1, the LE [1] is reported as 0.32, the LLE [1] is reported as 2.9 and the IC50 [2] is reported as > 100 µM. For the same compound, the IC50 [3] was > 100 µM and the IC50 [4] was 0.251 µM.
Compound COc1cc(-c2nc(C(C)(C)CN)[nH]c2-c2ccncc2)ccc1Cl has an LE [1] of 0.5, an LLE [1] of 6.1 and an IC50 [2] of 66.8 µM. The IC50 [3] was > 100 µM and the IC50 [4] was 0.0017 µM.
In the case of CC(C)(NC(=O)c1cccnc1)c1nc(-c2ccc(Cl)c(O)c2)c(-c2ccncc2)[nH]1, the LE ([1]; tested form: HCl) is reported as 0.3, the LLE ([1]; tested form: HCl) is reported as 4.2 and the IC50 ([2]; tested form: HCl) is reported as > 100 µM. The IC50 ([3]; tested form: HCl) was > 100 µM and the IC50 ([4]; tested form: HCl) was 0.075 µM.
In the case of CC(C)(C)Cn1nc(-c2ccc3scnc3c2)c(C(N)=O)c1N, the LE [1] is reported as 0.4, the LLE [1] is reported as 4.9 and the IC50 [2] is reported as > 100 µM. The IC50 [3] was > 100 µM and the IC50 [4] was 0.094 µM.
N#Cc1ccc(-c2nc(-c3ccncc3)c(-c3ccccn3)[nH]2)cc1 was tested, and the LE [1] was 0.33, the LLE [1] was 3.4 and the IC50 [2] was > 100 µM. For the same compound, the IC50 [3] was > 100 µM and the IC50 [4] was 0.989 µM.
